Assay results taken from publication PMC7277541, “Antimicrobial and Antifungal Activities of Terpene-Derived Palladium Complexes” (Antibiotics, 2020).

Columns and labels:
[1] = test system: S. aureus (MRSA) ATCC 43300; experiment: Antibacterial MIC assay, S. aureus (MRSA); type: cell-based, Staphylococcus aureus; conditions: for Selectivity Index (SI) S. aureus (MRSA) CC50/MIC: CC50 against HEK293 divided by MIC S. aureus ATCC 43300; for Selectivity Index (SI) S. aureus (MRSA) HC10/MIC: HC10 human red blood cells divided by MIC S. aureus ATCC 43300
Protocol: Dry compounds were dissolved in dimethyl sulfoxide (DMSO), and serially diluted 2-fold to produce an 8-point dose response with DMSO/water and then added into microtiter plates with a final DMSO concentration of 0.5%, providing a concentration range of 0.25 to 32 μg/mL. Screening against bacteria and yeasts for antimicrobial activity and toxicity against mammalian cells was performed in duplicate (n = 2).
For the bacterial assays, each bacterial strain was cultured in Cation-Adjusted Mueller Hinton Broth (CAMHB; Bacto Laboratories 212322) at 37 °C overnight. Bacterial strains tested were methicillin resistant S. aureus (methicillin-resistant Staphylococcus aureus - MRSA) ATCC 43300, E. coli ATCC 25922, K. pneumoniae K6/ESBL ATCC 700603, P. aeruginosa ATCC 27853, A. baumannii ATCC 19606. A sample of each culture was then diluted 40-fold in fresh CAMHB and incubated at 37 °C for 1.5–3 h. The resultant mid-log phase cultures were diluted with CAMHB (CFU/mL measured by OD600), then added to each well of the compound-containing plates (384-well non-binding surface (NBS) plates; Corning CLS3640), giving a final cell density of 5 × 10^5 CFU/mL and a total volume of 50 μL. Plates were covered and incubated at 37 °C for 18 h without shaking. Inhibition of bacterial growth was determined by measuring absorbance at 600 nm (OD600), using media only as negative control and bacteria without inhibitors as positive control. MIC values were determined as the lowest concentration at which the growth was inhibited by ≥ 80% (equivalent to no visible growth by eye). Colistin sulfate (Sigma Aldrich, Castle Hill, Australia C4461) and vancomycin HCl (Sigma Aldrich, 861987) were used as positive inhibitor controls on each plate for Gram-negative and Gram-positive bacteria, respectively.

[2] = test system: C. neoformans var. grubii H99 ATCC 208821; experiment: Antifungal MIC assay, C. neoformans; type: cell-based, Cryptococcus neoformans; conditions: for Selectivity Index (SI) C. neoformans CC50/MIC: CC50 against HEK293 divided by MIC C. neoformans var grubii H99 ATCC 208821; for Selectivity Index (SI) C. neoformans HC10/MIC: HC10 human red blood cells divided by MIC C. neoformans var grubii H99 ATCC 208821
Protocol: Screening against bacteria and yeasts for antimicrobial activity and toxicity against mammalian cells was performed in duplicate (n = 2). […] Becton Dickinson 242720) agar at 30 °C. A yeast suspension of 1 × 10^6 to 5 × 10^6 CFU/mL (as determined by OD530) was prepared from five colonies form the agar plates, and subsequently diluted with Yeast Nitrogen Base media (YNB; Becton Dickinson 233520), and added to each well of the compound containing plates (384-well plates, NBS; […] Plates were covered and incubated at 35 °C for 36 h without shaking. […] Fluconazole (Sigma Aldrich, F8929) was used as a positive inhibitor control on each plate for both strains.

| Structure (SMILES) | Selectivity Index (SI) S. aureus (MRSA) CC50/MIC [1] | Selectivity Index (SI) S. aureus (MRSA) HC10/MIC [1] | Selectivity Index (SI) C. neoformans CC50/MIC [2] | Selectivity Index (SI) C. neoformans HC10/MIC [2] |
| --- | --- | --- | --- | --- |
| CC12CCC(C(=NC(c3ccccc3)c3cccc[c]3[Pd][Cl])C1=O)C2(C)C.CC12CCC(C(=NC(c3ccccc3)c3cccc[c]3[Pd][Cl])C1=O)C2(C)C (stereo not drawn) [Compound 3] | 0.4 | >2 | 12.0 | >64 |
| C[C@H](N[C@@H]1C[C@H]2C[C@H](C2(C)C)[C@@]1(C)O)c1cccc[c]1[Pd][Cl].C[C@H](N[C@@H]1C[C@H]2C[C@H](C2(C)C)[C@@]1(C)O)c1cccc[c]1[Pd][Cl] [Compound 4] | 0.5 | 0.2 | > 50 and >66.4 | >22.4 |
| CC(C)(C)c1cc(C=NCCN=C2C[C@H]3C[C@H](C3(C)C)[C@@]2(C)O)c([O][Pd][Cl])c(C(C)(C)C)c1 [Compound 6] | 0.6 | ~ 1 and 1.0 | 1–2 and 1.1 | 1–2 and 2.0 |
| CC12CCC(CC1=NCCN=Cc1ccccc1[O][Pd][Cl])C2(C)C (stereo not drawn) [Compound 7] |  |  | > 8 | > 8 |
| CC1(C)[C@H]2CC(=NCCN)[C@](C)(O)[C@@H]1C2.[Cl][Pd][Cl] [Compound 8] |  | ≤0.2 | > 8 | 1.7 |
| CN(C)CCN=C1C[C@H]2C[C@H](C2(C)C)[C@@]1(C)O.[Cl][Pd][Cl] [Compound 9] |  |  | > 16 | >16 |
| CC1(C)[C@@H]2C[C@H]1[C@@](C)(O)[C@H](NCCN[C@@H]1C[C@H]3C[C@H](C3(C)C)[C@@]1(C)O)C2.[Cl][Pd][Cl] [Compound 10] |  | ≤0.1 | > 8 | 1.2 |
| CN(C)CCN=CC1=CCC2CC1C2(C)C.[Cl][Pd][Cl] (stereo not drawn) [Compound 11] | ≤0.3 |  | > 43.2 | >128 |
| CN(C)CCNCC1=CCC2CC1C2(C)C.[Cl][Pd][Cl] (stereo not drawn) [Compound 12] |  |  | > 128 | > 128 |

Values joined by “and” are separate entries in the source; they are usually repeats but may differ in a detail not shown here. Identical values can stand only once.
